# Sequence variants of PSTVd stem 26 after infection

Data from the supplement of Wu et al. 2024, doi:10.1371/journal.ppat.1012142.

PSTVd intermediate strain, stem 26: wild type AGGGUACCCU, pool pattern AGGGUNNCNN; upper and lower strand joined, each 5' to 3', the first 5 letters being the upper strand.

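A pool of all variants was put on leaves of three Nicotiana benthamiana plants. Progeny were sequenced from the inoculated region (day 5), the margin of the inoculated leaf (day 10) and systemic leaves (day 12).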

Values are reads per thousand in the sample; higher means more abundant, 0 means not found. Each site shows the three plants. "Pool" is the share in the plasmid pool used as inoculum, on the same scale. The inoculated region was read from the minus strand, the other sites from the plus strand.

sequence,pool,inoculated region,leaf margin,systemic leaves
AGGGUGCCUG,2.80,2.46 2.26 2.19,1.07 0 0.803,0 0 0
AGGGUCCCCA,2.91,1.21 0.709 0.559,0.0223 0 0.0893,0 0 0.0165
AGGGUCACUG,3.91,1.44 1.18 1.08,0.0223 0 0,0 0 0
AGGGUGAGCC,0.0329,0.851 1.76 1.20,1.20 0 0.0298,0 0 0
AGGGUAACAC,3.06,0.780 0.315 0.430,0 0 0,0 0 0.0165
AGGGUGUGCA,0.0329,0.851 2.02 1.29,1.11 0 0,0 0 0
AGGGUCACAC,3.08,0.992 0.630 1.03,0 0 0,0 1.67 0
AGGGUCCCCG,3.82,1.44 1.47 1.25,0 0 0,0 0 0
AGGGUCACAU,2.60,1.06 0.656 0.559,0 0 0,0 0 0
AGGGUUGCAA,3.22,0.874 0.840 0.559,0 0 0,0 0 0
AGGGUGCCUA,3.13,2.29 2.39 1.51,1.29 0 0.803,0 0 0
AGGGUUGCCU,4.18,2.62 2.44 1.38,0 0 0.0298,0 0.0143 0.0165
AGGGUCCCCC,2.91,0.969 0.630 0.430,0 0 0.0298,0 0 0
AGUGUUCCAC,0.0329,0 0 0,0 0 0,0 0 0
AGGGUGUCCC,5.63,4.23 4.80 3.31,1.29 2.46 1.37,0.355 1.38 2.02
AGGGUGUUCA,0.0329,1.23 1.86 1.51,1.11 1.78 1.04,0.0374 1.04 0.942
AGGGUAGCGU,4.67,2.53 2.34 1.55,0.0223 0.0261 0.0298,0 0 0
AGGGUUUCAU,3.90,1.37 0.945 0.645,0 0 0,0.224 0 0.0165
AGGGUAACCG,2.86,0.591 0.630 0.516,0.0223 0 0,0.0374 0 0.0165
AGGGUGGCGG,2.38,1.18 0.656 0.731,0 0 0,0 0 0
AGGGUACCCA,7.90,5.39 6.01 7.10,1.76 3.21 2.77,0.187 0.271 0.149
AGGGUCGCAA,2.99,0.945 0.656 0.430,0 0 0.0298,0 0 0
AGGGUCCCCU,2.70,1.16 0.893 0.817,0.0668 0.0523 0.238,0.0561 0.0570 0.0165
AGGGUGGGCC,0.0329,1.02 1.94 1.38,1.18 0 0,0 0 0
AGGGCCACAU,0.0329,0 0 0,0 0 0,0 0 0
AGGGUCGCGA,6.74,2.98 4.17 2.37,0.824 0.810 0.0893,0 0 0.0165
AGGGUGACUU,3.37,3.07 4.83 3.57,2.23 2.01 1.87,0.0374 0.941 0.0496
AGGGUCUCGA,2.93,0.945 0.761 0.602,0 0 0,0 0 0
AGGUUGACUC,1.07,0.638 0.840 0.645,0 0.0261 0,0 0 0
AGGGUGCACG,0.0329,0 0 0,0 0 0,0 0 0
AGGGUAACUA,4.26,2.62 3.26 2.49,0.846 0.0261 0,0 0.0143 0
AGGGUUCCCU,4.57,2.10 2.34 2.19,0 0.131 0.684,0.505 0.143 0.215
AGGGUCAGCG,0.0329,0 0 0,0 0 0,0 0 0
AGGGUUACAA,2.66,0.992 0.551 0.817,0 0 0,0 0.0143 0.0165
AGGGUUCCGC,2.80,0.992 0.683 0.817,0 0 0,0 0 0
AGGGUUCACC,0.0329,0 0.0263 0,0 0 0,0 0 0
AGGGUUCCCC,3.26,1.18 0.446 0.602,0 0 0.0298,0 0 0
AGGGUAGCUA,2.55,0.803 0.919 0.473,0 0 0,0 0 0
AGGGUAUCCG,3.09,1.02 0.683 0.903,0 0 0,0 0 0
AGGGUAGCCA,2.94,0.851 0.683 0.860,0 0 0.0298,0 0.0143 0
AGGGUGCCGG,5.94,6.83 6.17 4.56,0 0.0523 0,0.168 0.0143 0
AGGGUCUCGU,3.70,2.20 1.34 1.33,0.0223 0 0.0298,0.0187 0 0
AGGGUUAUCA,0.0493,0 0 0.0430,0 0 0,0 0 0
AGGGUCAAAU,0.740,0.0945 0.184 0.129,0 0 0,0 0 0
AGGGUGACUG,2.37,2.13 2.15 2.15,0.957 0 0.982,0 0 0
AGGGUAUCCA,3.06,1.11 0.525 0.774,0.0223 0 0,0 0 0
AGGGUGGCAG,2.42,1.11 0.709 0.731,0 0 0,0 0 0
AGGGUACCAC,3.64,1.35 1.23 1.16,0 0.0261 0,0 0 0
AGGGUUACCA,2.71,0.827 1.26 0.774,0 0 0,0 0.0143 0
AGGUUUACAA,0.477,0.142 0.0788 0.0860,0 0 0,0 0 0
AGGGUUUCUG,5.59,4.04 4.52 2.97,2.20 1.07 1.04,0.0374 0.0143 0.926
AGGGUGCGCG,0.0329,0 0 0,0 0 0,0 0 0
AGGGUAUCCU,3.49,45.3 37.6 28.0,26.5 6.43 8.57,1.70 46.4 3.06
AGGGUUACUA,3.47,1.42 0.840 0.989,0.0223 0 0.0298,0 0 0
AGGGUGCACA,0.0493,0.0236 0 0,0.0223 0 0,0 0 0
AGGGUGGCUC,3.08,2.43 2.26 1.81,1.22 1.52 0.952,0.0374 0.941 0.876
AGGGUUGGCC,0.0493,0 0 0,0 0 0,0 0 0
AGGGUCCCAA,2.66,0.591 0.814 0.559,0.0223 0 0.0298,0 0 0
AGGGUAUCAG,3.57,1.39 1.10 0.860,0 0 0,0 0 0
AGGGUUAUCU,0.0329,0 0 0,0 0 0,0 0 0
AGGGUACCAA,2.50,0.874 0.945 1.03,0.0223 0.0261 0.149,0.0374 0.0570 0.0661
AGGGUCACGC,4.11,2.93 3.02 2.32,0 0 0.0298,0 0.0143 0
AGGGUACCUA,3.91,1.25 1.55 0.903,0.0223 0 0.0298,0 0 0

Samples held 23,251 to 70,159 reads, so the smallest values rest on one or two reads. Sequences that differ at fixed positions probably stem from PCR or sequencing errors, and defective variants can be carried along by functional ones. Wild type was 44.9 per thousand in the pool and the most common sequence in every sample (inoculated region 297, 323, 447; leaf margin 793, 829, 846; systemic leaves 974, 853, 877).